Read-outs that look alike come from different tables or passages of the source.
Molecular target: monoclonal antibody that recognizes the 3,6-dideoxy-D-galactose (abequose) epitope in Salmonella paratyphi B O-antigens

| SMILES | Kd [µM] | Kd (read-out: Kd of indicator compound) [µM] | Kd (read-out: Kd ± s, FC/MS Ind.) [µM] | Kd (read-out: Kd ± s, FC/MS Mix) [µM] | Kd (read-out: Kd from x-intercept of ([A]0(V−V0))^−1 versus [A]0^−1 plot, infused at various concentrations, FIG. 6) [µM] |
| --- | --- | --- | --- | --- | --- |
| COC1OC(CO)C(O)C(OC2OC(C)C(O)CC2O)C1O (stereo not shown) [compound 4] | 200 | 200 | 185 ± 17 | 178 ± 23 |  |
| COC1OC(CO)C(O)C(OC2OC(C)C(O)CC2O)C1OC1OC(CO)C(O)C(O)C1O (stereo not shown) [compound 5] |  |  | 12.6 ± 1.3 | 10.2 ± 1.1 | 11.2 |
| COC1OC(CO)C(OC2OC(CO)C(O)C(OC3OC(CO)C(O)C(OC4OC(C)C(O)CC4O)C3OC3OC(CO)C(OC4OC(CO)C(OC5OC(CO)C(O)C(O)C5O)C(O)C4O)C(O)C3O)C2O)C(O)C1O (stereo not shown) [compound 6, αGlc(1-4)βGlc(1-4)αGal(1-2)-[αAbe(1-3)]αMan(1-3)αGlc(1-4)βGlc-OCH3] | 1.5 |  | 1.79 ± 0.2 | 1.71 ± 0.16 |  |
